Data reported in publication PMC5405149.
Where a protein sequence is shown, tags need not be part of it.

Target: T1, r-YycF (His-GB1-YycF) (UniProt Q8CQK0)
T1 sequence (looked up): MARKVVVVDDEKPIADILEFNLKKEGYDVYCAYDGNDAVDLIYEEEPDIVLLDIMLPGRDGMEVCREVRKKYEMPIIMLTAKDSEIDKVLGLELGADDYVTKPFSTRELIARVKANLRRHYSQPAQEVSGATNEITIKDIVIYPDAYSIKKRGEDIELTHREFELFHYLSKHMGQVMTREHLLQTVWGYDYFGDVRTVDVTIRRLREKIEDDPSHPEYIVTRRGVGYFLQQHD
Assay: EMSA
Settings: EMSA: 20 nM DNA, 10 mM Tris pH 8.0, 25 mM KCl, 1 mM EDTA, 2.5 mM MgCl2, 5% glycerol, 37 C 30 min; recombinant protein; residues 1-233; probe letters rebuilt from the primers and the genome

“CTTTCCCTCAGTCTTTTATGCCCATATCAATTCATGTAAATTTTCACAAGTATCAGAAAACAATCTAACACAATATAAAAAAATAAATCAAAAAGAAAAATGATATATTTAATCATTTTTTTATTTTTGTACTTCATCTTTTCTATTAGATATAAAAAAAGATGTGTCGTGTTGAGAGTTCAACATTAAATGAAAAACCCAGAAACTCTCTGATAGAGAAACACGATCACATCTTTTAATTCATTCATGATCTCTTTAGTTTTTAAAGCGATTTGCTAAACTAAGTATATCTTCGATGATATTTAATAAGTTGATAAACAAATTAAATCCCATTTCTCTTGGTGAGAATTGACC (double strand) [sarX promoter (serp3220 upstream)]”: binds.

“GAATATAGCAAATGCTACATTGCTAATTCAAGTATAATCTTTAAAAGATAATTTGTTTTATAAACACTTATTTGTTTACTTCTTAATTTTATTTAGTTATAATTAACTAAATAATATAGCATTAAATATATTCTTTAAATTTAAATTAATACTATATTATGACGGACACTTTCGTATTTTCATAAGAAAAATAGATATAAATTAATAAATTAGGGTATAGTATCCAAGTAATCTTAATTCAATAATATAATTAACTATCTTTAAATTTAAAAAGATGGGTTTTAAGATTTATGGATATGATATAAATAGGGAGGTTTCATTA (double strand) [sarA promoter]”: binds.
